{"source": "patent US6638509B1", "about": "“Toxin conjugates” (Kyowa Hakko Kogyo, Co., Ltd., priority 1995, dated 2003)", "tested_on": "proline endopeptidase", "settings": "37° C., 2.5 hours", "data": [{"substance": "BzlO-PEG-Ala-Pro-Compound (12) [Compound (X-2)]", "values": [{"measurement": "cleavage efficiency", "value": 100, "unit": "%"}]}]}
